Measured values from several laboratories, pooled; numbers as filed in NIAID ChemDB.

All rows: target-level tests; organism: HIV-1; target: Reverse transcriptase; read-out: fold resistance

An empty or dashed field is not shown. Lines come from different laboratories, so protocols vary. Fold resistance: result on the changed form divided by that on wild type. Two numbers with a dash give a range or band.

| compound | strain | mutations | read by | value |
|---|---|---|---|---|
| CC(C)[C@H](NC(=O)c1ccc(NC(=O)CSc2nnc(Br)n2-c2ccc(C3CC3)c3ccccc23)c(Cl)c1)C(=O)O |  | RT-Y181C | nucleotide incorporation / radiometric | <1 |
| CCN1c2ncc(CCc3ccccc3)cc2C(=O)N(C)c2cccnc21 | IIIB | RT-Y188L RT-Y181C | RT activity | >>20 |
| CCN1c2ncc(CCOc3ccc(C(=O)NCc4ccc(C(=O)O)cc4)cc3C)cc2C(=O)N(C)c2cccnc21 | IIIB | RT-K103N Y181C | nucleotide incorporation / radiometric | 1 |
| CCOC(=O)c1c(C(C)C)c(C#N)c(=N)n2ccccc12 |  | RT-Y181I |  | 1.42 |
| CCc1ccc(-n2c(Br)nnc2SCC(=O)Nc2ccc(C(=O)NCC(C)O)cc2Cl)c2ccccc12 |  | RT-Y188L | nucleotide incorporation / radiometric | >1 |
| CC(C)=CCN1Cc2cccc3[nH]c(=S)n(c23)C[C@@H]1C |  | RT-Y188L | nucleotide incorporation | 532 |
| CCN1c2ncc(CCOc3ccc(-c4ccc[n+]([O-])c4C)cc3C)cc2C(=O)N(C)c2cccnc21 | IIIB | RT-K103N Y181C | nucleotide incorporation / radiometric | 1 |
| CCN1c2ncc(CCOc3ccc(S(=O)(=O)NC(C)=O)c4ccccc34)cc2C(=O)N(C)c2cccnc21 |  | RT-V106A | nucleotide incorporation / radiometric | >10 |
| CC(C)=CCOc1cc(NC(=S)c2ccoc2C)ccc1Cl |  | RT-E138K |  | 0.66 |
| Cc1cc(S(N)(=O)=O)ccc1NC(=O)C(C)Sc1nnc(Br)n1-c1c(C)ccc2ccccc12 |  | RT-Y188L | nucleotide incorporation / radiometric | >2 |
| COc1ccc2c(c1)N(C(=O)OC(C)C)[C@@H](CSC)C(=S)N2 |  | RT-W229Y | radiometric | 1.42 |
| CCN1c2ncc(CCOc3ccc(-c4cc(C)[n+]([O-])c(C)c4)cc3C)cc2C(=O)N(C)c2cccnc21 | IIIB | RT-K103N Y181C | nucleotide incorporation / radiometric | 1 |
| CCN1c2ncc(CCOc3ccc(CCC(=O)O)c4ccccc34)cc2C(=O)N(C)c2ccc(Cl)nc21 |  | RT-Y188L | nucleotide incorporation / radiometric | >10 |
| Cc1ccc2c(C)cc(C)c(-n3c(SCC(=O)Nc4ccc(S(N)(=O)=O)cc4Cl)nnc3C(F)F)c2n1 |  | RT-Y188L | nucleotide incorporation / radiometric | >2 |
| O=c1cc(Cc2ccccc2)nc(NCCCCO)[nH]1 |  | RT-K103N |  | 2.05 |
| CCc1cc(CCc2nc3ccccc3o2)c(=O)[nH]c1C |  | RT-K103N Y188C | nucleotide incorporation | >1000 |
| CC(Sc1nnc(Br)n1-c1ccc(C2CC2)c2ccccc12)C(=O)Nc1ccc(S(N)(=O)=O)cc1Cl |  | RT-Y181C | nucleotide incorporation / radiometric | >1 |
| CCN1c2ncc(CCOc3ccc(C(=O)O)c4c3CCC4)cc2C(=O)N(C)c2cccnc21 |  | RT-K103N Y181C | nucleotide incorporation / radiometric | 1–10 |
| Nc1nc2c(ncn2[C@H]2CC[C@@H](COP(=O)(O)OP(=O)(O)OP(=O)(O)O)O2)c(=O)[nH]1 |  | RT-W229Y | radiometric | 1.35 |
| CCN1c2ncc(CCc3ccncc3)cc2C(=O)N(C)c2ccc(Cl)nc21 | IIIB | RT-Y181C | RT activity | 1.5 |
| Cc1cc(S(N)(=O)=O)ccc1NC(=O)COc1ccccc1C(=O)c1cc(Cl)cc(C#N)c1 | NNRTI-resistant | RT-K103N | fluorescence | 1.4 |
| CCN1c2ncc(CCOc3ccc(S(=O)(=O)NCC(=O)O)c4ccccc34)cc2C(=O)N(C)c2cccnc21 |  | RT-Y188L | nucleotide incorporation / radiometric | 1–10 |
| CCc1ccc(-n2c(C)nnc2SCC(=O)Nc2ccc(S(N)(=O)=O)cc2C)c2ccccc12 |  | RT-Y181C | nucleotide incorporation / radiometric | >2 |
| CCN1c2ncc(CCOc3ccc(-c4ccc(C(=O)O)cc4)c(Cl)c3)cc2C(=O)N(C)c2cccnc21 | IIIB | RT-K103N Y181C | nucleotide incorporation / radiometric | >1 |
| CCN1c2ncc(CCOc3ccc(NS(C)(=O)=O)c4ccccc34)cc2C(=O)N(C)c2ccc(F)nc21 |  | RT-V106A | nucleotide incorporation / radiometric | 1–10 |
| CCc1ccc(-n2c(SCC(=O)Nc3ccc(S(N)(=O)=O)cc3Cl)nnc2C(F)F)c2c1CCCC2 |  | RT-Y188L | nucleotide incorporation / radiometric | >2 |
| CCN1c2ncc(CCOc3cccc4c3ccc[n+]4[O-])cc2C(=O)Nc2c(C)cc(Cl)nc21 |  | RT-K103N L100I | nucleotide incorporation / radiometric | 3.8 |
| Cc1cc(S(N)(=O)=O)ccc1NC(=O)CSc1nnc(CF)n1-c1ccc(C)c2c1CCCC2 |  | RT-Y181C | nucleotide incorporation / radiometric | >2 |
| CCN1c2ncc(CCOc3ccc(-c4ccc(CC(=O)O)cc4)cc3CO)cc2C(=O)N(C)c2cccnc21 | IIIB | RT-K103N Y181C | nucleotide incorporation / radiometric | 1 |
| Cc1cc(C2CC2)c2ccccc2c1-n1c(Br)nnc1SCC(=O)Nc1ccc(S(=O)(=O)O)cc1Cl |  | RT-Y188L | nucleotide incorporation / radiometric | >1 |
| CCN1c2ncc(CCOc3ccc(C(=O)O)c4c3CCC4)cc2C(=O)N(C)c2ccc(Cl)nc21 |  | RT-Y188L | nucleotide incorporation / radiometric | 1–10 |
| CCCc1ccc(-n2c(Br)nnc2SCC(=O)Nc2ccc(S(N)(=O)=O)cc2Cl)c2ccccc12 |  | RT-Y188L | nucleotide incorporation / radiometric | >2 |
| CCN1c2ncccc2NC(=O)c2cc(CCOc3ccc(-c4cc(OC)c(O)c(C(=O)O)c4)cc3C)cnc21 | IIIB | RT-K103N Y181C | nucleotide incorporation / radiometric | 1 |
| CC(C)=CCOc1cc(NC(=S)c2ccoc2C)ccc1Cl |  | RT-W229F | nucleotide incorporation | 1.59 |
| CCN1c2ncc(CCOc3ccc(C(=O)N(C)c4ccc(C(=O)O)cc4)cc3C)cc2C(=O)N(C)c2cccnc21 | IIIB | RT-K103N Y181C | nucleotide incorporation / radiometric | >1 |
| CCOC(=O)CNC(=O)c1ccc(NC(=O)CSc2nnc(Br)n2-c2ccc(C3CC3)c3ccccc23)c(Cl)c1 |  | RT-Y181C | nucleotide incorporation / radiometric | >1 |
| CCN1c2ncc(CCOc3ccc(CCC(=O)O)c4ccccc34)cc2C(=O)N(C)c2ccc(F)nc21 |  | RT-K103N Y181C | nucleotide incorporation / radiometric | 1–10 |
| CCc1ccc(-n2c(Br)nnc2SCC(=O)Nc2ccc(C(=O)N3CCC(CN)CC3)cc2Cl)c2ccccc12 |  | RT-Y188L | nucleotide incorporation / radiometric | >2 |
| CCN1c2ncc(CCOc3ccc(NC(=O)Nc4ccc(C(=O)O)cc4)cc3C)cc2C(=O)N(C)c2cccnc21 | IIIB | RT-K103N Y181C | nucleotide incorporation / radiometric | 1 |
| CCN1c2ncc(CCOc3ccc(CC(=O)O)c4c3CCCC4)cc2C(=O)N(C)c2ccc(Cl)nc21 |  | RT-V106A | nucleotide incorporation / radiometric | 1–10 |
| CC(C)=CCOc1cc(NC(=S)c2ccsc2C)ccc1Cl |  | RT-E138K |  | 1 |
| Cc1c(Cc2ccccc2)nc(NCCCCN)[nH]c1=O |  | RT-Y188L |  | >10.3 |
| CCN1c2ncc(CCOc3ccc(-c4ccc(F)c(CC(=O)O)c4)cc3C)cc2C(=O)N(C)c2cccnc21 | IIIB | RT-K103N Y181C | nucleotide incorporation / radiometric | 1 |
| CCOC(=O)[C@H](Cc1ccc(O)cc1)NC(=O)c1ccc(NC(=O)CSc2nnc(Br)n2-c2ccc(C3CC3)c3ccccc23)c(Cl)c1 |  | RT-Y181C | nucleotide incorporation / radiometric | <1 |

For reference, 5 entries again:

compound,strain,mutations,read by,value
CCN1c2ncc(CCOc3ccc(C(=O)O)c4c3CCC4)cc2C(=O)N(C)c2ccc(Cl)nc21,,RT-Y188L,nucleotide incorporation / radiometric,1–10
CCN1c2ncc(CCOc3ccc(S(=O)(=O)NCC(=O)O)c4ccccc34)cc2C(=O)N(C)c2cccnc21,,RT-Y188L,nucleotide incorporation / radiometric,1–10
CCN1c2ncc(CCOc3ccc(-c4ccc(C(=O)O)cc4)c(Cl)c3)cc2C(=O)N(C)c2cccnc21,IIIB,RT-K103N Y181C,nucleotide incorporation / radiometric,>1
O=c1cc(Cc2ccccc2)nc(NCCCCO)[nH]1,,RT-K103N,,2.05
CCN1c2ncc(CCOc3ccc(NS(C)(=O)=O)c4ccccc34)cc2C(=O)N(C)c2ccc(F)nc21,,RT-V106A,nucleotide incorporation / radiometric,1–10